A mixed list of measured activities; the numbers were collected in NIAID ChemDB.

All rows: growth or infection tests; organism: HIV-1; method: luciferase; measure: EC50

ECn is the concentration giving n% inhibition of infection, replication or growth. An empty or dashed field is not shown. a–b is a range or a potency band. Neighbouring rows are from separate reports.

structure,setting,cells,strain,mutations,result
COc1cnc(-n2cnc(C)n2)c2[nH]cc(C(=O)C(=O)N3CCC(=C(c4ccccc4)c4cc(F)cc(F)c4)CC3)c12,-,HeLa,-,-,<1 µM
NCCC(NC(=O)c1ccc(-c2ccc(Cl)nc2)[nH]1)c1nc(CO)cs1,pseudotyped,TZM-bl,HXB2,-,>11 µM
COc1ccc(C(=O)Nc2ccc(CCC(=O)CCc3ccc(O)c(O)c3)cc2)cc1,-,TZM-bl,BaL,-,>200 µM
NCCC(NC(=O)c1ccc(-c2ccc(F)cn2)[nH]1)c1nc(CO)cs1,-,TZM-bl,HXB2,-,>11 µM
CNC(=O)c1ccc(F)c2c(C(=O)C(=O)N3CCN(S(=O)(=O)NC)CC3)c[nH]c12,-,HeLa,Recombinant,-,>5 µM
Cc1cc(C)c(Oc2nc(Nc3ccc(C#N)cc3)nc3ccsc23)c(C)c1,-,HeLa,L1001-K103N,-,0.01–0.1 µM
C=C(C)[C@@H]1CC[C@]2(C(=O)O)CC[C@]3(C)[C@H](CC[C@@H]4[C@@]5(C)CC=C(c6ccc(C(=O)NS(=O)(=O)C(C)C)cc6)C(C)(C)[C@@H]5CC[C@]43C)[C@@H]12,-,MT-2,NL4-3,Gag P373S,1 µM
COc1ncc(OC)c2c(C(=O)C(=O)N3CCC(=C(c4ccccc4)c4c(C)noc4C)CC3)c[nH]c12,-,HeLa,-,-,<1 µM
Cc1cc(/C=C/C#N)cc(C)c1Nc1ccnc(Nc2ccc(C#N)cc2)n1,-,TZM-bl,NL4-3,Y181C/K103N,0.0025 µM
CNC(=O)c1ccc(F)c2c(C(=O)C(=O)N3CCN(S(=O)(=O)Nc4ccccc4)CC3)c[nH]c12,-,HeLa,Recombinant,-,1–5 µM
C=C(C)[C@@H]1CC[C@]2(CO)CC[C@]3(C)[C@H](CC[C@@H]4[C@@]5(C)CC=C(c6ccc(S(N)(=O)=O)cc6)C(C)(C)[C@@H]5CC[C@]43C)[C@@H]12,-,MT-2,NL4-3,Gag P373S,1 µM
CC(C)(N)CC(NC(=O)c1ccc(-c2ccc(C(F)(F)F)cn2)[nH]1)c1nc(CO)cs1,pseudotyped,TZM-bl,-,-,1.73 µM
COc1ccc(C(=O)Nc2ccc(CCC(=O)CCc3ccc(OC(C)=O)c(OC(C)=O)c3)cc2)cc1,-,TZM-bl,BaL,-,30.63 µM
NCCC(NC(=O)c1ccc(-c2ccc(C(F)(F)F)cn2)[nH]1)c1csc(C(=O)NCCO)n1,pseudotyped,TZM-bl,HXB2,-,>21.3 µM
COc1ccnc2[nH]cc(C(=O)C(=O)N3C4CC3CN(C(=O)c3ccccc3)C4)c12,-,TZM-bl,PVO,-,175 µM
COc1ncc(OC)c2c(C(=O)C(=O)N3CCC(=C(C#N)c4ccsc4)CC3)c[nH]c12,-,HeLa,-,-,<1 µM
CC(=O)Oc1ccc(/C=C/C(=O)CCc2ccc(NC(=O)Cc3cccs3)cc2)cc1OC(C)=O,-,TZM-bl,BaL,-,>50 µM
CC(=O)Nc1nc(-c2cccc(NC(=O)[C@@H](N)Cc3cnc[nH]3)c2)cs1,-,-,NL4-3,-,0.41 µM
CN(C)S(=O)(=O)N1CCN(C(=O)C(=O)c2c[nH]c3c(-n4cncn4)ncc(F)c23)CC1,-,HeLa,Recombinant,-,<1 µM
Cc1cc(C)c(Nc2nc(Nc3ccc(C#N)cc3)nc3ccsc23)c(C)c1,-,HeLa,-,-,<0.01 µM
COc1ccnc2[nH]cc(C(=O)C(=O)N3C4CCCC3CN(C(=O)c3ccccc3)C4)c12,-,TZM-bl,6535,-,0.02 µM
Cc1cc(S(N)(=O)=O)ccc1NC(=O)COc1ccc(Cl)cc1C(=O)c1cc(F)cc(C(F)(F)F)c1,-,HELA MAGI,IIIB,RT-L100I,0.0012 µM
Cc1cc(C)c(Oc2nc(Nc3ccc(C#N)cc3)nc3c(C)csc23)c(C)c1,-,HeLa,Y-188L,-,0.01–0.1 µM
COc1ccnc2[nH]cc(C(=O)C(=O)N3CCN(S(=O)(=O)N(C)C)C[C@H]3C)c12,-,HeLa,Recombinant,-,<1 µM
Cc1nnc(-c2ccc3c(=O)n(-c4ccc(Cl)c5c(NS(C)(=O)=O)nn(CC(F)(F)F)c45)c([C@H](Cc4cc(F)cc(F)c4)NC(=O)Cn4nc(C(F)F)c5c4C(F)(F)[C@@H]4C[C@H]54)nc3c2)nc1C,-,MT-2,NL4-3,-,0.00004 µM
Cc1cc(C)c(Nc2nc(Nc3ccc(C#N)cc3)nc3c(C)csc23)c(C)c1,-,HeLa,Y181C,-,<0.01 µM
CNC(=O)c1ccc(F)c2c(C(=O)C(=O)N3CCN(S(=O)(=O)N4CCOCC4)CC3)c[nH]c12,-,HeLa,Recombinant,-,>5 µM
C=C(C)[C@@H]1CC[C@]2(CO)CC[C@]3(C)[C@H](CC[C@@H]4[C@@]5(C)CC=C(c6ccc(C(=O)O)cc6C)C(C)(C)[C@@H]5CC[C@]43C)[C@@H]12,-,MT-2,NL4-3,Gag P373S,1 µM
Cc1ccc(C(=O)Nc2ccc(CCC(=O)/C=C/c3ccc(O)c(O)c3)cc2)cc1,-,TZM-bl,BaL,-,>50 µM
COc1cnc(Cl)c2[nH]cc(C(=O)C(=O)N3CCC(=C(C#N)c4ccccc4)CC3)c12,-,HeLa,-,-,<1 µM
C=C(C)[C@@H]1CC[C@]2(CO)CC[C@]3(C)[C@H](CC[C@@H]4[C@@]5(C)CC=C(c6csc(C(=O)O)c6)C(C)(C)[C@@H]5CC[C@]43C)[C@@H]12,-,MT-2,NL4-3,Gag P373S,1 µM
Cc1ccnc2c1NC(=O)c1cccnc1N2C1CC1,-,HEK293T,MJ4 C,N348I,287 nM
COc1cnc(-c2cccc(C(=O)O)c2)c2[nH]cc(C(=O)C(=O)N3CCC(=C(C#N)c4ccccc4)CC3)c12,-,HeLa,-,-,<1 µM
O=C(CCc1ccc(NC(=O)c2ccccc2)cc1)CCc1ccc(O)c(O)c1,-,TZM-bl,BaL,-,22.84 µM
C[C@H](Cn1cnc2c(N)ncnc21)OCP(=O)(O)O,-,TZM-bl,NLAD8,-,0.007 µM
CCN(CC)S(=O)(=O)N1CCN(C(=O)C(=O)c2c[nH]c3c(C(=O)NC)ccc(F)c23)CC1,-,HeLa,Recombinant,-,1–5 µM
CC(CCN)(NC(=O)c1ccc(-c2ccc(C(F)(F)F)cn2)[nH]1)c1nc(CO)cs1,pseudotyped,TZM-bl,HXB2,-,5.1 µM
Cc1ccc(C(=O)Nc2ccc(CCC(=O)CCc3ccc(O)c(O)c3)cc2)cc1,-,TZM-bl,BaL,-,36.3 µM
C=C(C)[C@@H]1CC[C@]2(CO)CC[C@]3(C)[C@H](CC[C@@H]4[C@@]5(C)CC=C(c6cc(C(=O)O)[nH]n6)C(C)(C)[C@@H]5CC[C@]43C)[C@@H]12,-,MT-2,NL4-3,Gag P373S,1 µM
NCCC(NC(=O)c1ccc(-c2ccc(C(F)(F)F)nn2)[nH]1)c1nc(CO)cs1,pseudotyped,TZM-bl,HXB2,-,>12 µM
CC(=O)Nc1nc(-c2cccc(NC(=O)[C@@H](N)CCCN=C(N)N)c2)cs1,-,-,NL4-3,-,>50 µM
COC(=O)c1ccc(F)c2c(C(=O)C(=O)N3CCN(S(=O)(=O)N4CCCCC4)CC3)c[nH]c12,-,HeLa,Recombinant,-,1–5 µM
COc1ccc(C(=O)Nc2ccc(CCC(=O)/C=C/c3ccc(O)c(O)c3)cc2)cc1,-,TZM-bl,BaL,-,16.56 µM
C=C(C)[C@@H]1CC[C@]2(CO)CC[C@]3(C)[C@H](CC[C@@H]4[C@@]5(C)CC=C(c6ccc(B(O)O)cc6)C(C)(C)[C@@H]5CC[C@]43C)[C@@H]12,-,MT-2,NL4-3,Gag P373S,0.0134 µM

For reference, 3 entries again:

structure | setting | cells | strain | mutations | result
COc1cnc(-n2cnc(C)n2)c2[nH]cc(C(=O)C(=O)N3CCC(=C(c4ccccc4)c4cc(F)cc(F)c4)CC3)c12 | - | HeLa | - | - | <1 µM
Cc1cc(C)c(Oc2nc(Nc3ccc(C#N)cc3)nc3ccsc23)c(C)c1 | - | HeLa | L1001-K103N | - | 0.01–0.1 µM
Cc1cc(S(N)(=O)=O)ccc1NC(=O)COc1ccc(Cl)cc1C(=O)c1cc(F)cc(C(F)(F)F)c1 | - | HELA MAGI | IIIB | RT-L100I | 0.0012 µM